We go through one sequence from publication PMC12291119, “In Vitro Selection of Cyclized, Glycosylated Peptide Antigens That Tightly Bind HIV High Mannose Patch Antibodies” (ACS Central Science, 2025).

The assay has as its target PGT122. Put plainly: Biolayer interferometry (BLI) of immobilized biotinylated (glyco)peptides binding to PGT122. The settings on record: peptide immobilized via biotin on streptavidin biosensor, 2-fold dilutions of PGT122, global 1:1 fit. An excerpt: 9 Biolayer interferometry (BLI) measurement of glycopeptides immobilized via biotin on a streptavidin biosensor binding to PGT122 and gl-PGT121. All sensorgrams represent a series of 2-fold dilutions of antibodies with highest concentration tested labeled. All sequences followed by GSGSGK(Biotin). M denotes homopropargylglycine, modified by CuAAC as in Figure .
C. Binding Analysis of PGT Antibody-Peptide/Glycopeptide Interactions by Biolayer Interferometry
1. Biolayer Interferometry Protocol
Biotinylated glycopeptide was loaded onto a streptavidin biosensor in 250 µL buffer 1 (500 to 1000 nM […] glycopeptide in 20 mM Tris pH 7.5, 150 mM NaCl, 0.2 mg/ml BSA, 0.02% (v/v) Tween-20) for 120s in a […] of black Eppendorf tube. The sensor was then washed with 250 µL of blank buffer 1 for 120 seconds in a […] black Eppendorf tube. The sensor was washed with 250 µL buffer 3 (10 mM glycine HCl, pH 2.5) for 120 seconds in […] of black Eppendorf tube and followed by 250 µL of blank buffer 1 for 120 seconds in a […] black Eppendorf tube to immobilize glycopeptides in a range of 0.5 nm to 2 nm response. […]
(BLI is a label-free optical method that tracks binding on a fibre tip over time.)

pKd: −log10 of the molar value.

The term pKd denotes the Kd on a negative log10 scale, so that one unit is a factor of ten. Read a low pKd as a large Kd.

“AKTRTPMNLSGKSNIRYFFTIDNSTMFEDLFMRFPRSKEYHIELEEFEDLIR [compound 9, PGT122 selection hit 2U7 (K->E variant), synthetic Man9GlcNAc2 glycopeptide]”: the pKd was 6.95.
